Data as given in US20240165214A1, “COMPOSITIONS AND METHODS FOR STABILIZATION OF ALLOSTERIC PROTEINS” (priority 2021, published 2024).

Tested on: mAb21
Assay: mAb21 binding time course to immobilized fimbriae and three-state model

B1: FimH^FocH: recombinant FimH variant with FocH-derived substitution in its pilin domain altering the interdomain interface (protein)
chain: FACKTANGTAIPIGGGSANVYVNLAPVVNVGQNLVVDLSTQIFCHNDYPETITDYVTLQRGSAYGGVLSNFSGTVKYSGSSYPFPTTSETPRVVYNSRTDKPWPVALYLTPVSSAGGVAIKAGSLIAVLILRQTNNYNSDDFQFVWNIYANNDVVVPTGGCDVSARDVTVTLPDYPGSVPIPLTVRCDQTQSVSYTLSGSVADAGNSIFTNTASFSPAQGVGVQLTRNGTIIPANNTVSLGAVGTSAVSLGLTANYARTGGQVTAGNVQSIIGVTFVYQ
Absence of mannose
  time to 50% of the maximal optical density (OD50) of mAb21 binding: ~40 s
Absence of mannose, 1 h
  mAb21 binding to fimbriae: recognized well
Earliest time points
  mAb21 accumulation level in absence of mannose, of level in mannose presence: 70-75%
Presence of mannose
  time to 50% of the maximal optical density (OD50) of mAb21 binding: ~20 s
